Measurements as given in the supplement of paper PMC12637763.
Changes are numbered by the printed parent chain. This is one part of the list. Env chains of viruses from a treatment-interruption trial, translated from the printed DNA. IC50 / IC80 of two broadly neutralizing antibodies; lower = more sensitive virus; >50 µg/ml means not reached and <0.001 µg/ml is below the lowest dose. No active / inactive call.

B1: HIV-1 Env, reservoir clone (protein)
chain: MKVKGIRKNYQHLWRWGTMLLGMLMICSAADKLWVTVYYGVPVWKDATTTLFCASDAKAYDTEVHNVWATHACVPTDPDPQEVVLNVTENFNMWKNDMVGQMHEDIISLWDQSLKPCVKLTPLCVTLHCTNATFKNTTGAENATDTTNTTGEIEGKIKQEMKNCSFNVTTDIRDKMQKQYALFYKLDIVPIDNNDSYRLISCNTSVITQACPKVSFEPIPIHYCAPAGFAILKCNDKKFSGKGTCNNVSTVQCTHGIRPVVSTQLLLNGSLAEEDVVIRSDNFSDNAKTIIVQLNKTVKINCTRPGNNTRKSITVGPGRAFYGTEDIIGDIRKAHCNISRTDWNNTLKKVAEKLREKFENRTIAFNHSSGGDPEIVMHSFNCGGEFFYCNTTPLFKGTWNSTWNGNDTTESNSSTITLQCRIKQIINMWQEVGKAMYAPPIKGNIICSSNITGLLLTRDGGKTNETNTTIETFRPGGGDMRDNWRSELYKYKVVQIEPLGVAPTKAKRRVVQREKRAVTLGAMFLGFLGAAGSTMGAASMMLTVQARQLLSGIVQQQNNLLRAIEAQQHLLQLTVWGIKQLQARVLAVERYLRDQQLLGIWGCSGKLICPTAVPWNASWSNKSLDIIWNNMTWMQWEKEISNYTGLIYSLIEESQNQQEKNEQELLELDKWDSLWNWFSITKWLWYIKIFIMIVGGLIGLRIIFAVLSIVNRVRQGYSPLSLQTLLPAPRGPDRPEGIEEEGGERERDRSGRLVTGLLELIWEDLRSLCLFSYHRLRDLLLITARTVGLLGSRGWEILKYLWNLLQYWSQELKSSAISLFNTTAITVAEGTDRVIEVVLRVFRAIRNIPRRIRQGFERALQ
B2: HIV-1 Env, reservoir clone (protein)
chain: MRVMGMLRNWQHLEKWGLLFLGLLIICSAKDNLWVTVYYGVPVWKEATTTLFCASDAKGYDKEAHNVWATHACVPTDPNPQEIWLKNVTENFNIWRNDMVEQMHTDIISLWDESLKPCVKITPLCVTLNCTNAKFNSTSANSTQEEPGAVQNCTFNTTTELRDKKQKVYALFYRLDLIPLKENNASNNASNEYILINCNTSIIKQACPKVSWDPIPIHYCAPAGYAILKCRDKKFNGTGPCKNVSTVQCTHGVKPVVSTQLLLNGSLAEEDIVIRSENISDNAKTIIVSLNEPVQINCTRPGNNTRKGIHLGPGQTFYARGDIIGDIRKAHCKINKSQWNKTLAQVSTKLKSLLNITGVVFKPPVGGDLEVTMHSFNCRGEFFYCNTSGLFNFSYSVPTNETITINETITIPCKIKQIINMWQGVGQAMYAPPIAGNITCNSNITGILLIRDGGPNSTNNDTFRPGGGDMRDNWRSELYKYKVVEIEPLGVAPTRARRQVVRRERRAVGIGAVFLGFLGAAGSTMGAASITLTVQARQLLSGIVQQQRNLLQAIEAQQHLLKLTVWGIKQLQARVLAVERYLKDQQLLGIWGCSGKLICTTSVPWNSSWSNRSLDEIWNNMTWIDWEREISNYSQEIYKLIEQSQNQQEKNEQELLALDKWASLWSWFDITNWLWYIKIFIMIVGGLIGLRIVFAVLAIVNRVRKGYSPLSLQTLIPSPRGPDRPDGIEEGGGEQGRDRSVRLVTGFLALVWDDLRNLCLFSYRHLRDFILIAARVVDRGLRRGWEILKYLWNLTKYWSQELKNSATSLFNSTAIVVAEGTDRIIEALQAVIRAVLHIPRRIRQGFERALL
B3: HIV-1 Env, reservoir clone (protein)
chain: B2 chain with V776A
B4: HIV-1 Env, reservoir clone (protein)
chain: B2 chain with D625E
B5: HIV-1 Env, reservoir clone (protein)
chain: MRVMGTQRNYPLFWNWVMIIFWMIIIGNANKLWVTVYYGVPVWKEAETTLFCASDAKAYDTEVHNVWATHACVPTDPDPREIPLENVTEKFNMWKNDMVEQMHQDIISLWDQSLKPCVKLTPLCVTLNCTNATAINATGSIVGNSTDMKNCSFNVTTIRRDKMQKEYALFYNLDIVQIDNSDNSSYRLVSCNTSVITQACPKVSFEPIPIHYCAPAGFAIIKCNNKTFNGTGPCTNVSTVQCTHGIKPVVSTQLLLNGSLAEEKIMIRSENITNNAKTIIVQLKESVTINCTRPGNNTRKSIRIGPGQTYYATGAIIGDIRQAHCNVSKKEWMNTLQKVAKQLGEHFISAQNISFNSSSGGDVEITTHSFICGGEFFYCNTTGLFNSTWIRNNTWTNNDTWIYNESSSNWTGTITLQCRIKQYVNLWQRVGRAMYAPPIRGDINCTSNITGLLLTRDGGGNNESQTFRPIGGDMRDNWRSELYKYKVVKIEPLGVAPTYAKRRVVGREKRAVGLGAVFLGFLGAAGSTMGAASITLTVQARQLLSGIVQQQSNLLKAIEAQQHLLRLTVWGIKQLQARVLALERYLRDQQLLGIWGCSGKLICPTTVPWNSSWSNKTFNEIWDNMTWLQWDKEISNYTETIYALIEQSQNQQEKNEQDLLALDKWANLWNWFDITKWLWYIKIFIMIVGGLIGLRIVFAVFSLVNRVRQGYSPLSFQILNHRQREPDRPGRIEEEGGEQDRDRSVRLVSGFLALAWDDLRSLCLFLYHRLRDSVLIATRGVELLGHSILKGLRLGWEALKHLWNLLSYWSQELKNSAISLLDTIAIAVANWTDRVIELGQAAGRAIRHIPRRIRQGLERALL
B6: HIV-1 Env, reservoir clone (protein)
chain: MRVKGIKKNYQRLWRWGTMLLGLLMICNAEKLWVTVYYGVPVWKEATTTLFCASDAKGYDTEAHNVWATHACVPTDPNPQEIDLVNVNESFNMWKNNMVEQMHQDIISLWDQSLKPCVRLTPLCVNLNCTDLKKGNSTQNTTNTTKLEEKGEGEVKNCSFNITTNYNDKKQQEYAFFYNLDVVKVGDNDTSYRLISCNTSVVTQACPKINFDPIPIHYCAPAGFAILKCKDKKFNGTGICTNVSTVQCTHGIKPVVSTQLLLNGSLAEEEVVIRSENFTNNAKTIIVQLNEAVAINCIRPNNNTRKSIHMGPGKAFYTTGDIIGDIRQAHCNISKGEWNKTLSRVVEKLQGQFGNKTINFNQSSGGDPEIVMHSFNCAGEFFYCNTTGLFNSTWISPSNSTWNNTWNSTENIGENITLPCRIKQIVNRWQEVGKAIYAPPIKGPISCSSNITGILLTRDGGNDNITNNTETFRPGGGDMRDNWRSELYKYKVVEIKPLGVAPTKAKRRVVQREKRAVGLGAVLFGFLGAAGSTMGAASVTLTVQARQLLSGIVQQQNNLLRAIEAQQHLLQLTVWGIKQLQARVLAVERYLRDQQLLGLWGCSGKLICTTAVPWNTSWSNKSMTQIWNHTTWMQWEREIDNYTNIIYNLIEDSQNQQEQNKKELLELDKWASLWNWFDITNWLWYIKLFIMIVGGLIGLRIVFAVLSIVKRVRQGYSPLSLQTLLPTQRGPDRPEGIEEGGGERDRDRSRRLVDGFLALIWDDLRSLCLFSYHRLRDLLLIVTRIVGLLGRRGWDILKYWWNLLQYWIQELKNSAVSLLNYTAIAVAEGTDRIIEVLQRIFRAVLHIPTRIRQGLERALV

What was measured:
antibody 10-1074 [1] = test: neutralization IC50; higher = virus less sensitive to the antibody
Experimental: (§1)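 Pseudovirus bearing the Env chain mixed with antibody, from 50 µg/ml in fivefold dilutions, on TZM-bl reporter cells, in duplicate.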

antibody 3BNC117 [2] = test: as above
Experimental: as §1

antibody 10-1074 [3] = test: neutralization IC80; higher = virus less sensitive to the antibody
Experimental: as §1

antibody 3BNC117 [4] = test: as above
Experimental: as §1

Binder	neutralization IC50 (antibody 10-1074 [1]) [µg/mL]	neutralization IC50 (antibody 3BNC117 [2]) [µg/mL]	neutralization IC80 (antibody 10-1074 [3]) [µg/mL]	neutralization IC80 (antibody 3BNC117 [4]) [µg/mL]
B1	1.54	0.295	9.2	0.998
B2	> 50	9.82	> 50	> 50
B3	> 50	48.6	> 50	> 50
B4	> 50	49.5	> 50	> 50
B5	0.023	0.105	0.086	0.534
B6	0.008	0.055	0.024	0.201
